Measurements reported in PubChem BioAssay AID1259414 (Drosophila RNAi Screening Center, 2018)

- Test: 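Host factors increasing or decreasing Wolbachia levels in cultured fly cells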 (primary screen)
- System: Drosophila JW18 cells infected with Wolbachia
- Knock-down reagent: long dsRNA against Drosophila genes, 0.25 µg dsRNA per well of a 384-well plate
- Timing: 5 days
- Treatment: cells persistently infected with Wolbachia before knock-down; no added drug
- Read-out: 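Imaged fluorescence in situ signal for Wolbachia 23S rRNA per DAPI-counted host cell, given as a robust z-score within each plate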
- Scale: Wolbachia per cell robust z: higher = more Wolbachia per host cell than the plate typical
- Hit rule: 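Hit when robust z is 1.5 or more, or -1.5 or less, in at least two of three replicates; excludes dsRNAs with several or no targets, genes not expressed in JW18 and well A1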
The deposit covers about 24,000 reagents; below is an unselected part of those that have a named target and a result. Over the whole deposit, about 1,210 (5%) were called active. 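Inactive calls also include excluded dsRNAs with several or no targets, genes unexpressed in JW18, and well A1, regardless of score.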 Entries without a mark were called inactive. A plus sign joins genes that one reagent is predicted to hit.

no.	target gene	amplicon	Wolbachia per cell robust z, rep 1	Wolbachia per cell robust z, rep 2	Wolbachia per cell robust z, rep 3
1	CG14642	DRSC12228	-0.0318	-1.28	0.72
2	Cyp308a1 (Cytochrome P450 308a1)	DRSC20238	0.27	-0.392	0.0507
3	Cyp308a1 (Cytochrome P450 308a1)	DRSC26958	-0.542	-0.401	2.43
4	ZnT77C (Zinc transporter 77C)	DRSC11766	-0.691	0.572	-2.17
5	ZnT77C (Zinc transporter 77C)	DRSC11767	0.328	-0.792	0.48
6	CG10801	DRSC17761	0.832	0.911	0.501
7	CAH1 (Carbonic anhydrase 1)	DRSC29399	-0.695	0.18	-0.574
8	Gbs-70E (Glycogen binding subunit 70E)	DRSC11055	-0.199	-0.0892	-0.411
9	CG30008	DRSC21576	0.544	-0.868	0.711
10	CG30008	DRSC27726	0.0556	0.199	0.245
11	twi (twist)	DRSC23185	0.778	-5.18	0.358
12	twi (twist)	DRSC26056	0.677	-0.829	0.983
13	CG10713	DRSC09786	-1.56	0.953	0.376
14	CG10713	DRSC24532	0.253	-0.12	-0.985
15	Tsp29Fb (Tetraspanin 29Fb)	DRSC03233	-0.718	-0.733	-1.55
16	Tsp29Fb (Tetraspanin 29Fb)	DRSC26296	0.956	-0.744	0.671
17	CG13048	DRSC09929	0.664	0.709	-0.294
18	CG13048	DRSC26938	-0.713	-0.607	-0.0918
19	repo (reversed polarity)	DRSC23108	0.799	1.58	0.749
20	repo (reversed polarity)	DRSC26970	-1.95	-0.919	0.895
21	Su(var)3-3 (Suppressor of variegation 3-3)	DRSC10250	-2.45 (active)	-2.43	0.385
22	Su(var)3-3 (Suppressor of variegation 3-3)	DRSC24846	-0.858	-1.03	-1.37
23	CG42335	DRSC14597	1.37	0.452	0.519
24	CG42335	DRSC15892	1.43	-0.785	-2.04
25	CG42335	DRSC25666	0.884	1.21	0.825
26	Pde8 (Phosphodiesterase 8)	DRSC04503	-0.409 (active)	-2.29	-5.07
27	Pde8 (Phosphodiesterase 8)	DRSC29684	-1.13	-0.622	-7.25
28	Pde8 (Phosphodiesterase 8)	DRSC40593	0.974	1.07	0.745
29	r + CG13012	DRSC19531	1.04	-2.58	0.459
30	MSBP (membrane steroid binding protein)	DRSC20146	-0.196	0.215	0.281
31	CG13344	DRSC06378	-1.24	-0.138	-0.545
32	PolI (DNA polymerase iota)	DRSC16267	-0.505	-1.79	-0.699
33	GstE13 (Glutathione S transferase E13)	DRSC06083	1.51 (active)	1.91	0.428
34	CG5597	DRSC04517	-0.521	-9.4	-1.84
35	Pif1A (PFTAIRE-interacting factor 1A)	DRSC14383	0.121	-3.4	1.44
36	CG34453	DRSC38689	-0.262	-3.43	0.547
37	tj (traffic jam)	DRSC02011	1.14	1.13	1.3
38	tj (traffic jam)	DRSC28417	-1.61	-3.47	-2.43
39	topi (matotopetli)	DRSC16431	0.0494	-2.45	0.3
40	CG34041	DRSC22276	0.616	-1.1	1.16
41	CG34041	DRSC30023	0.998	-0.802	-0.0358
42	CG34184	DRSC38644	-0.928	0.000668	0.647
43	GstE5 (Glutathione S transferase E5)	DRSC06675	-1.8	-1.53	-1.85
44	Vha100-3 (Vacuolar H[+] ATPase 100kD subunit 3)	DRSC05760	-0.1	0.00115	0.533
45	stnA + stnB	DRSC21113	0.584	1.03	0.937
46	CG15772	DRSC18078	-0.956	-0.0199	0.63
47	Ntan1 (N-terminal amidohydrolase 1)	DRSC07546	0.499	0.0677	-0.952
48	mRpS18C (mitochondrial ribosomal protein S18C)	DRSC16538	-0.206	-3.87	-0.756
49	mRpS18C (mitochondrial ribosomal protein S18C)	DRSC27054	-2.31	-0.0633	0.949
50	CG11920	DRSC14439	0.776	0.768	1.37
51	MED19 (Mediator complex subunit 19)	DRSC10516	0.774	0.742	1.67
52	MED19 (Mediator complex subunit 19)	DRSC23458	-0.701	-0.588	-1.82
53	MED19 (Mediator complex subunit 19)	DRSC39059	-1.73	-0.462	-0.867
54	ND-23 (NADH dehydrogenase (ubiquinone) 23 kDa subunit)	DRSC15526	-0.654	0.572	-0.489
55	CatB (Catalase B)	DRSC03194	-2.51	-3.34	-3.01
56	CatB (Catalase B)	DRSC24516	1.19	1.37	0.963
57	su(w[a]) (suppressor of white-apricot)	DRSC18840	-0.563	-0.926	0.412
58	su(w[a]) (suppressor of white-apricot)	DRSC29287	0.996	0.685	0.642
59	CG33172	DRSC21793	-1.1	-0.202	-0.38
60	CG2076	DRSC19832	0.276	-1.79	-5.77
61	CG2076	DRSC27047	-1.97	0.492	1.23
62	Ctns (Cystinosin)	DRSC15175	0.544	0.269	1.16
63	RpL24 (Ribosomal protein L24)	DRSC03185	1.82 (active)	2.89	1.88
64	RpL24 (Ribosomal protein L24)	DRSC28724	0.658 (active)	2.03	2.25
65	CRAT (Carnitine O-Acetyl-Transferase)	DRSC12523	-7	0.0571	0.685
66	CRAT (Carnitine O-Acetyl-Transferase)	DRSC29377	1.49	0.156	0.609
67	Rcd6 (Reduction in Cnn dots 6)	DRSC06054	0.0167	0.855	0.382
68	Rcd6 (Reduction in Cnn dots 6)	DRSC27115	-0.198	-0.379	-0.0355

Limited to “Wolbachia per cell robust z, rep 2”, for 7 of the entries above:
ZnT77C (Zinc transporter 77C) [DRSC11766]: 0.572
ZnT77C (Zinc transporter 77C) [DRSC11767]: -0.792
CG10801 [DRSC17761]: 0.911
CAH1 (Carbonic anhydrase 1) [DRSC29399]: 0.18
Gbs-70E (Glycogen binding subunit 70E) [DRSC11055]: -0.0892
CG30008 [DRSC21576]: -0.868
CG30008 [DRSC27726]: 0.199
